This is an account of results in patent US20250276054A1 (NOVAVAX, published 2025).

The target of one experiment is A/Colorado/18/2022 HA (influenza A (H5N1) virus, strain …). Nature of the experiment: cell-based or functional assay.
Another experiment deals with A/Mink/Spain/3691-8 HA (influenza A (H5N1) virus, strain …). Description: cell-based or functional assay.

B1: mAb NVX.73.2 (antibody, V domains shown)
VH: QIQLVQSGPELKKPGETVKISCKASGYTFTNYGMNWVKQAPGKGLKWMDWIHTYTGEPTYADDFKGRFAFSLETSASTAYLQINNLTNEDTATYFCARQYGSSYGYFDYWGQGTTLTVSS
VL: DIVLTQSPASLAVSLGQRATISCRASESVDSYGKSFMHWYQQKPGQPPKLLIYRASNLESGIPARFSGSGSRTDFTLTINPVEADDVATYYCQQSNEDPRTFGGGTKLEIK
For B1, in the experiment with A/Colorado/18/2022 HA, the “Hemagglutination Inhibition Endpoint Titers” value was over 500 ng/mL and the “Pseudovirus Neutralization (IC50, ng/mL)” value came to 22.4 ng/mL. Besides, in the experiment with A/Mink/Spain/3691-8 HA, the “Hemagglutination Inhibition Endpoint Titers” value was over 500 ng/mL and the “Pseudovirus Neutralization (IC50, ng/mL)” value came out at 43.7 ng/mL.

B2: mAb NVX.361.4 (antibody, V domains shown)
VH: QVQVQQSGSELVKPGASVRLSCKASGYNFTTYYMYWVKQRPGQGLEWIGEINPTNGISNFNERFKNKATLTVDKSSSTAYMQLSSLTSEDSAVYYCTRASDYYGGSWFAYWGQGTLVTVSA
VL: DIVMTQSQKFMSTSVGDRVSVTCKASQNVYTNVAWYQQKPGQSPKALIYSASFRYNGVPDRFTGSGSGTDFTLTISNVQSEDLADYFCQQYNNYPLTFGAGTKLELK
As to B2, the “Hemagglutination Inhibition Endpoint Titers” value in the experiment with A/Colorado/18/2022 HA and in the experiment with A/Mink/Spain/3691-8 HA was 250 ng/mL each time. The “Pseudovirus Neutralization (IC50, ng/mL)” value was found to be 4.86 ng/mL with A/Colorado/18/2022 HA and 13.1 ng/mL in the experiment with A/Mink/Spain/3691-8 HA.
